{"source": "patent US20230226072A1", "about": "(priority 2020, published 2023)", "system": "SARS-CoV-2 virus", "details": "2.5 mg/I, incubated with virus […]"}
{"smiles": "CN(C)c1ccc2nc3ccc(=[N+](C)C)cc-3sc2c1.[Cl-]", "note": "[methylene blue, [7-(dimethylamino)phenothiazin-3-ylidene]-dimethylazanium; chloride]", "values": [{"measurement": "viricidal effect (virus titer)", "result": "total viricidal effect"}]}
